Paper PMC10108740 (Journal of Medicinal Chemistry, 2023)
Like-named read-outs stand apart in the source and are kept apart here.

Assays:
[1] = system: SARS-CoV-2 (WA-1); experiment: Antiviral immunofluorescence assay, SARS-CoV-2 WA1 in Vero-TMPRSS2 cells; assay type: cell-based; conditions: SI = CC50/EC50, Vero-TMPRSS2 cells
[2] = system: SARS-CoV-2 (WA-1); experiment: Antiviral immunofluorescence assay, SARS-CoV-2 WA1 in human pluripotent stem cell-derived lung cells; assay type: cell-based; conditions: SI = CC50/EC50, PSC-lung cells
[3] = system: SARS-CoV-2 WA1 (USA-WA1/2020); experiment: Antiviral immunofluorescence assay, SARS-CoV-2 WA1 in Calu-3 cells; assay type: cell-based; conditions: SI = CC50/EC50, WA1, Calu-3 cells
[4] = system: SARS-CoV-2 (WA-1); experiment: Antiviral immunofluorescence assay, SARS-CoV-2 WA1 in Huh7.5 cells; assay type: cell-based; conditions: SI = CC50/EC50, Huh7.5 cells
[5] = system: SARS-CoV-2 WA1 (USA-WA1/2020); design: method as in Schooley et al.[24]; conditions: SI = CC50/EC50, Calu-3 cells, ref Schooley et al.[24]; cited from earlier work

For CCCCCCCCCCCCCCCCCCOC[C@H](COP(=O)(O)OC[C@H]1O[C@@](C#N)(c2ccc3c(N)ncnn23)[C@H](O)[C@@H]1O)OCc1cccc(F)c1 [Compound 9d, ((2R,3S,4R,5R)-5-(4-Aminopyrrolo[2,1-f][1,2,4]triazin-7-yl)-5-cyano-3,4-dihydroxytetrahydrofuran-2-yl)methyl ((R)-2-((3-fluorobenzyl)oxy)-3-(octadecyloxy)propyl) hydrogen phosphate], the SI [1] was over 369.

CCCCCCCCCCCCCCCCCCOC[C@H](COP(=O)(O)OC[C@H]1O[C@@](C#N)(c2ccc3c(N)ncnn23)[C@H](O)[C@@H]1O)OCc1ccc(OC)c(F)c1 [Compound 9g, ((2R,3S,4R,5R)-5-(4-Aminopyrrolo[2,1-f][1,2,4]triazin-7-yl)-5-cyano-3,4-dihydroxytetrahydrofuran-2-yl)methyl ((R)-2-((3-fluoro-4-methoxybenzyl)oxy)-3-(octadecyloxy)propyl) hydrogen phosphate] gave an SI [1] of over 561 and an SI [2] of over 119.

For CCCCCCCCCCCCCCCCCCOC[C@H](COP(=O)(O)OC[C@H]1O[C@@](C#N)(c2ccc3c(N)ncnn23)[C@H](O)[C@@H]1O)OCCCCCCCC [Compound 9h, ((2R,3S,4R,5R)-5-(4-Aminopyrrolo[2,1-f][1,2,4]triazin-7-yl)-5-cyano-3,4-dihydroxytetrahydrofuran-2-yl)methyl ((R)-3-(octadecyloxy)-2-(octyloxy)propyl) hydrogen phosphate], the SI [3] was over 255, the SI [4] was over 177 and the SI [1] was over 129.

In the case of CCCCCCCCCCCCCCCCCCOC[C@H](COP(=O)(O)OC[C@H]1O[C@@](C#N)(c2ccc3c(N)ncnn23)[C@H](O)[C@@H]1O)OCCC1CCCCC1 [Compound 9i, ((2R,3S,4R,5R)-5-(4-Aminopyrrolo[2,1-f][1,2,4]triazin-7-yl)-5-cyano-3,4-dihydroxytetrahydrofuran-2-yl)methyl ((R)-2-(2-cyclohexylethoxy)-3-(octadecyloxy)propyl) hydrogen phosphate], the SI [1] is reported as over 337.

With CCCCCCCCCCCCCCCCCCOC[C@H](COP(=O)(O)OC[C@H]1O[C@@](C#N)(c2ccc3c(N)ncnn23)[C@H](O)[C@@H]1O)OCc1ccccc1C#N [Compound 9l, ((2R,3S,4R,5R)-5-(4-Aminopyrrolo[2,1-f][1,2,4]triazin-7-yl)-5-cyano-3,4-dihydroxytetrahydrofuran-2-yl)methyl ((R)-2-((2-cyanobenzyl)oxy)-3-(octadecyloxy)propyl) hydrogen phosphate] the SI [4] was over 980.

Work on CCCCCCCCCCCCCCCCOC[C@H](COP(=O)(O)OC[C@H]1O[C@@](C#N)(c2ccc3c(N)ncnn23)[C@H](O)[C@@H]1O)OCc1ccccc1 [Compound 11a, ((2R,3S,4R,5R)-5-(4-Aminopyrrolo[2,1-f][1,2,4]triazin-7-yl)-5-cyano-3,4-dihydroxytetrahydrofuran-2-yl)methyl ((R)-2-(benzyloxy)-3-(hexadecyloxy)propyl) hydrogen phosphate] yielded an SI [4] of over 763 and an SI [1] of over 248.

Work on CCCCCCCCCCCCCCCCOC[C@H](COP(=O)(O)OC[C@H]1O[C@@](C#N)(c2ccc3c(N)ncnn23)[C@H](O)[C@@H]1O)OCc1ccc(OC)c(F)c1 [Compound 11g, ((2R,3S,4R,5R)-5-(4-Aminopyrrolo[2,1-f][1,2,4]triazin-7-yl)-5-cyano-3,4-dihydroxytetrahydrofuran-2-yl)methyl ((R)-2-((3-fluoro-4-methoxybenzyl)oxy)-3-(hexadecyloxy)propyl) hydrogen phosphate] yielded an SI [1] of over 246 and an SI [2] of over 153.

In the case of CCCCCCCCCCCCCCOC[C@H](COP(=O)(O)OC[C@H]1O[C@@](C#N)(c2ccc3c(N)ncnn23)[C@H](O)[C@@H]1O)OCc1ccccc1 [Compound 12a, ((2R,3S,4R,5R)-5-(4-Aminopyrrolo[2,1-f][1,2,4]triazin-7-yl)-5-cyano-3,4-dihydroxytetrahydrofuran-2-yl)methyl ((R)-2-(benzyloxy)-3-(tetradecyloxy)propyl) hydrogen phosphate], the SI [3] is reported as over 469, the SI [4] is reported as over 636 and the SI [1] is reported as over 110.

In the case of CCC(CC)COC(=O)[C@H](C)N[P@](=O)(OC[C@H]1O[C@@](C#N)(c2ccc3c(N)ncnn23)[C@H](O)[C@@H]1O)Oc1ccccc1 [RDV, remdesivir], the SI [5] is given as over 434.

For N#C[C@@]1(c2ccc3c(N)ncnn23)O[C@H](CO)[C@@H](O)[C@H]1O [RVn, GS-441524], the SI [5] is given as over 666.

For “((2R,3S,4R,5R)-5-(4-Aminopyrrolo[2,1-f][1,2,4]triazin-7-yl)-5-cyano-3,4-dihydroxytetrahydrofuran-2-yl)methyl ((R)-2-(benzyloxy)-7-(tetradec-5-en-1-yloxy)heptyl) hydrogen phosphate [Compound 10a]”, the SI [3] was 410, the SI [4] was over 917 and the SI [1] was over 341. For the same compound, the SI [2] was over 74.
